The assay concerns HIV-1 (RF variant) in CEM-SS cells. As to the kind of experiment: XTT-tetrazolium anti-HIV assay (HIV-1-infected CEM-SS cells). It counts as cell-based. From the text: Cancer Inst. […] Cancer Inst. 81:1254-1258, (1989)] but with several modifications.
Philadelphia: Lippincott, 1988, pp. 305-317; Weislow et al.: J. Nat. Cancer Inst. […] Cancer Inst. 81:1254-1258, (1989)].
(In general: Formazan colour is commonly taken as a measure of viable cells.)

The structures appear in SMILES notation.

Consider `CC(=O)O[C@@]12C[C@@H](C)[C@@]3(O)[C@@H](C=C(CO)C[C@]4(O)C(=O)C(C)=C[C@@H]34)[C@@H]1C2(C)C` [prostratin], for which the “Anti-HIV activity over time, XTT end-point” value (0-5 days of incubation, FIG. 3, 10 μg/ml) is “strikingly apparent after three or more days”. Further, the “XTT-formazan production in virus-infected cells” value (1.0-200 μg/ml, HIV-1-infected CEM-SS, 6 days) was “only a modest enhancement”. The “Number of viable cells (XTT-formazan), infected versus uninfected cultures” value (broad range of concentrations) is listed as “essentially identical”. Besides, the Anti-HIV activity result (fraction and pure compound from H. acuminatus isolation, anti-HIV screen) is listed as “striking activity”.
Regarding `CCCC(=O)O[C@@H]1[C@@H](C)[C@@]2(O)[C@@H](C=C(CO)C[C@]3(O)C(=O)C(C)=C[C@@H]23)[C@@H]2C(C)(C)[C@]12OC(=O)CCC` [PDBu, phorbol 12,13-dibutyrate, reference compound], under “500 nM”, the “Protection against HIV-1” value is on record as “protective against HIV-1”.

(Values after US5599839A, “Antiviral composition” (The United States of America as represented by the …, priority 1995, dated 1997).)
